Type in all cases: cell-based
One series concerns human T-lymphocyte (CEM). Nature of the series: Cytostatic activity against tumor cell lines (cell number by Coulter counter). To be noted: for TI P. aeruginosa CEM: ratio IC50 (CEM) / BIC50 (P. aeruginosa); for TI S. Typhimurium CEM: ratio IC50 (CEM) / BIC50 (S. Typhimurium). As to the method:
(§1) The IC50 was defined as the compound concentration required to inhibit cell proliferation by 50%. The therapeutic index (TI) was calculated as the ratio of the compound concentration producing toxicity (IC50) to the concentration needed to exert the desired ‘therapeutic’ effect on biofilms of Salmonella and Pseudomonas, indicated by the BIC50 (dose needed to prevent biofilm formation by 50%). The higher the therapeutic index, the broader the safety window of the compound.
(§2) Murine leukemia (L1210), human T-lymphocyte (CEM) and human cervix carcinoma (HeLa) were suspended at 300,000–500,000 cells/mL of culture medium, and 100 µL of a cell suspension was added to 100 µL of an appropriate dilution of the test compounds in 200 µL-wells of 96-well microtiter plates. After incubation at 37 °C for two (L1210), three (CEM) or four (HeLa) days, the cell number was determined using a Coulter counter. The IC50 was defined as the compound concentration required to inhibit cell proliferation by 50%.

The test system of series [1] is human cervix carcinoma (HeLa). Described as above. To be noted: for TI P. aeruginosa HeLa: ratio IC50 (HeLa) / BIC50 (P. aeruginosa); for TI S. Typhimurium HeLa: ratio IC50 (HeLa) / BIC50 (S. Typhimurium). On the procedure: as §1, §2
In the next series the test system is murine leukemia (L1210). Described as above. To be noted: for TI P. aeruginosa L1210: ratio IC50 (L1210) / BIC50 (P. aeruginosa); for TI S. Typhimurium L1210: ratio IC50 (L1210) / BIC50 (S. Typhimurium). As to the method:
as §1, §2

The test system of another series is L1210, CEM and HeLa. Put plainly: Cytostatic activity against tumor cell lines, statements over all cell lines. To be noted: IC50 / BIC50, both bacterial species.

Structures are written as SMILES.

As for `CCCCCOc1ccc(Cc2nc(N)n(Cc3ccccc3)c2-c2ccc(C)cc2)cc1` [compound 35], in the series with human T-lymphocyte (CEM), the “TI P. aeruginosa CEM” value stood at 0.3 and the “TI S. Typhimurium CEM” value was determined as 0.8. Besides, in series [1], the “TI P. aeruginosa HeLa” value was determined as 0.5 and the “TI S. Typhimurium HeLa” value is given as 1.4. For the same compound, in the series with murine leukemia (L1210), the “TI P. aeruginosa L1210” value was found to be 0.3 and the “TI S. Typhimurium L1210” value turned out to be 0.8. Besides, the “TI with respect to Salmonella and/or Pseudomonas biofilm inhibition” value in the series with L1210, CEM and HeLa was “below 1”.
As to `CCCCCNc1ncc(-c2ccc(Cl)cc2)[nH]1` [compound 23], in the series on human T-lymphocyte (CEM), the “TI P. aeruginosa CEM” value is given as 51.3 and the “TI S. Typhimurium CEM” value was less than 0.8. In series [1], the “TI P. aeruginosa HeLa” value came out at 3.1 and the “TI S. Typhimurium HeLa” value was less than 0.05. In addition, in the series on murine leukemia (L1210), the “TI P. aeruginosa L1210” value came out at 3.5 and the “TI S. Typhimurium L1210” value is less than 0.05. In addition, the “TI with respect to Salmonella and/or Pseudomonas biofilm inhibition” value in the series on L1210, CEM and HeLa is “below 1”.

These data come from paper PMC6271933, “Evaluation of the Toxicity of 5-Aryl-2-Aminoimidazole-Based Biofilm Inhibitors against Eukaryotic Cell Lines, Bone Cells and the Nematode Caenorhabditis elegans” (Molecules, 2014).
